{"source": "patent US6270957A", "about": "“Non-Imuunosuppressive cyclosporins and their use in the prevention and treatment of HIV infection” (Wisconsin Alumni Research Foundation, priority 1999, dated 2001)", "origin": "cited, not measured here", "target": "HIV protease (Human immunodeficiency virus type 1 group M subtype B, UniProt P04585)", "conditions": "read-out: Ki against HIV protease; parent inhibitor of another company, for comparison; cited from earlier work", "note": "pKi: −log10 of the molar value."}
{"compound": "CC(C)(C)c1ccccc1Sc1c(O)cc(-c2ccccc2)oc1=O", "values": [{"measurement": "pKi", "value": 8.14}]}
